The test has as its target dihydrolipoamide acyltransferase (DlaT) (Mycobacterium tuberculosis, UniProt P9WIS7). The test can be described thus: DlaT inhibition (Dlat IC50); DTNB peroxidase assay with Lpd, DlaT and AhpD. Conditions: read-out: Dlat IC50 category.

Amino acid sequences for entries named in this document (tags omitted).
UniProt P9WIS7, whole entry: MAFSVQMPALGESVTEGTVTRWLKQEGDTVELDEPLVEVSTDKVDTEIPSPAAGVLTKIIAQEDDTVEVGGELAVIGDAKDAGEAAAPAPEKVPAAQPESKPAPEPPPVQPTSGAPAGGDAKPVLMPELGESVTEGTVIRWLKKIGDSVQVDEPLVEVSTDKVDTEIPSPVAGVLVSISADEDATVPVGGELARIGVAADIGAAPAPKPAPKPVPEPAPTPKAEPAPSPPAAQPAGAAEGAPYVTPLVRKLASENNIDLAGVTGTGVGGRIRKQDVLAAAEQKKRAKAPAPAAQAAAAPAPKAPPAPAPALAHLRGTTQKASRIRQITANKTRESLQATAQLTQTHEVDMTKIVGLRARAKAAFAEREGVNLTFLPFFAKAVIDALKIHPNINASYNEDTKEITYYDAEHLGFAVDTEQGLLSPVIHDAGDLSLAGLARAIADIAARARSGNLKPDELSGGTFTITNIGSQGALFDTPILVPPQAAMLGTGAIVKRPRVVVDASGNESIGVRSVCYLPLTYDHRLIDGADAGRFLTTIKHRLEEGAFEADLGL

Data on 12 molecules can be found in patent US8338465B2, “Cyclic carboxylic acid rhodanine derivatives for the treatment and prevention of tuberculosis” (priority 2006, dated 2012).

Where two headings read alike, the source gives them in different places. Some results are limits rather than exact numbers.

For `O=C(O)c1cccc(N2C(=O)C(=Cc3ccc(-c4ccc(N5CCOCC5)cc4)o3)SC2=S)c1`, the 50% inhibitory concentration (IC50) (Table 1, Compounds A1 to A294) lay within 11 to 40 µM.

Turning to `O=C(O)C(c1ccccc1)N1C(=O)C(=Cc2ccc(-c3cc4ccccc4s3)o2)SC1=S` (stereo not drawn), the IC50 (Table 10, Compounds J1 to J3) is less than 10 µM.

With `O=C(O)CCCCCN1C(=O)C(=Cc2ccc(-c3cncnc3)o2)SC1=S`, the IC50 (Table 18, Compounds R2 to R6) lay in the range of 11 to 40 µM.

As for `O=C(O)CN1C(=O)C(=Cc2ccc(-c3cc(C(=O)N4CCCCC4)c4cc(Br)ccc4n3)o2)SC1=S`, the IC50 (Table 18, Compounds R2 to R6) lay in the range of 11 to 40 µM.

For `O=C(O)C(c1ccccc1)N1C(=O)C(=Cc2ccc(Cc3ccccc3Cl)o2)SC1=S` (stereo not drawn), for the setting “Table 15, Compounds O1 to O5”, the IC50 is 11 to 40 µM.

Consider `O=C(O)CCN1C(=O)C(=Cc2ccc(Oc3ccc(Cl)cc3)o2)SC1=S`, for which the IC50 (Table 15, Compounds O1 to O5) fell in the range of 11 to 40 µM.

On to `O=C(O)c1cc(N2C(=O)C(=Cc3ccc(-c4cc5ccccc5s4)o3)SC2=S)ccc1O`, for which the IC50 was less than 10 µM.

With `O=C(O)C(c1ccccc1)N1C(=O)C(=Cc2ccc(Oc3ccc(Cl)cc3)o2)SC1=S` (stereo not drawn), for the setting “Table 15, Compounds O1 to O5”, the half-inhibitory concentration (IC50) is less than 10 µM.

Turning to `O=C(O)c1cccc(N2C(=O)C(=Cc3ccc(-c4cc(C(=O)N5CCCCC5)c5cc(Br)ccc5n4)o3)SC2=S)c1`, the concentration for half-maximal inhibition (IC50) (Table 17, Compounds Q1 to Q9) lay in the range of 11 to 40 µM.

As to `O=C(O)c1cccc(N2C(=O)C(=Cc3ccc(-c4cc(C(=O)N5CCCCC5)c5ccccc5n4)o3)SC2=S)c1`, the IC50 (Table 17, Compounds Q1 to Q9) lay in the range of 11 to 40 µM.

Regarding `O=C(O)CN1C(=O)C(=Cc2ccc(-c3cc4ccccc4s3)o2)SC1=S`, under “Table 10, Compounds J1 to J3”, the IC50 was less than 10 µM.

As to `O=C(O)CN1C(=O)C(=Cc2ccc(Cc3ccccc3Cl)o2)SC1=S`, the IC50 (Table 15, Compounds O1 to O5) fell in the range of 11 to 40 µM.

As usually defined, the IC50 is the concentration at which inhibition is half-maximal.
